# Experimental data published in patent US9120849B2 (priority 2000, dated 2015).
# Tested on: HIV RNA
# Assay: Roche COBAS HIV-1 Monitor PCR assay quantitating HIV RNA copy number of inactivated virus
# Set-up: species or system human immunodeficiency virus (HIV)
# Conditions: samples diluted 1:1000, copy number at this dilution
substance,measurement,setting,value
paraformaldehyde,HIV RNA copy no.,HIV treated with 0.63% paraformaldehyde,"325,000"
same,HIV RNA copy no.,HIV treated with 1.25% paraformaldehyde,"48,000"
same,HIV RNA copy no.,HIV treated with 2.50% paraformaldehyde,"12,678"
same,HIV RNA copy no.,HIV treated with 5.00% paraformaldehyde,"7,192"
